Measurements reported in patent publication US4026888A, “Certain derivatives of particular 3-thiolated cephalosporins” (priority 1976, dated 1977).

Experiment: Bio-assay

| SMILES | Bio-assay (bio potency, BL-S640 activity) | other results |
| --- | --- | --- |
| N[C@@H](C(=O)N[C@@H]1C(=O)N2C(C(=O)O)=C(CSc3cnn[nH]3)CS[C@H]12)c1ccc(O)cc1 [7-[D-α-amino-α-(p-hydroxyphenyl)acetamido]-3-(1,2,3-triazol-] [7-[D-α-amino-α-(p-hydroxyphenyl)acetamido]-3-(1,2,3-triazol-5-ylthiomethyl)-3-cephem-4-carboxylic acid propylene glycol solvate] | 840 to 900 µg/mg |  |
| O=C(O)C1=C(CSc2cnn[nH]2)CS[C@@H]2[C@H](N3C(=O)[C@@H](c4ccc(O)cc4)NC3c3ccc(S(=O)(=O)O)o3)C(=O)N12 (stereo partly drawn) [BL-S1027] | 724 µg/mg |  |
| O=C(O)C1=C(CSc2cnn[nH]2)CS[C@@H]2[C@H](N3C(=O)[C@@H](c4ccc(O)cc4)NC3c3ccccc3S(=O)(=O)O)C(=O)N12 (stereo partly drawn) [BL-S1055] |  | Bio-Assay: 700 mcg./mgm. |
| N[C@@H](C(=O)N[C@@H]1C(=O)N2C(C(=O)O)=C(CSc3cnn[nH]3)CS[C@H]12)c1ccc(O)cc1 [Methanol Solvate, 7-[D-α-amino-α-(p-hydroxyphenyl)acetamido]-3-(1,2,3-triazol-5-ylthiomethyl)-3-cephem-4-carboxylic acid] | 850 to 900 µg/mg |  |
| N[C@@H](C(=O)N[C@@H]1C(=O)N2C(C(=O)O)=C(CSc3cnn[nH]3)CS[C@H]12)c1ccc(O)cc1 [dihydrate, 7-[D-α-amino-α-(p-hydroxyphenyl)acetamido]-3-(1,2,3-triazol-5-ylthiomethyl)-3-cephem-4-carboxylic acid dihydrate] |  | Bio-assay (bio potency, BL-S640 activity) (dihydrate): 950 to 1000 µg/mg |
| N[C@@H](C(=O)N[C@@H]1C(=O)N2C(C(=O)O)=C(CSc3cnn[nH]3)CS[C@H]12)c1ccc(O)cc1 [sesquihydrate, 7-[D-α -amino-α-(p-hydroxyphenyl)acetamido]-3-(1,2,3-triazol-5-ylthiomethyl)-3-cephem-4-carboxylic acid sesquihydrate] |  | Bio-assay (bio potency, BL-S640 activity) (sesquihydrate): 924 µg/mg |

Where two headings read alike, the source gives them in different places.
